Columns and labels:
Shaker F425G = Shaker F425G (Drosophila melanogaster, UniProt P08510, F425G); test: Two-electrode voltage clamp, Shaker F425G mutant in Xenopus oocytes; conditions: 2 μM toxin
TSha1 K^+ channel = test: Two-electrode voltage clamp, TSha1 K+ channel in Xenopus oocytes; state-dependent block; type: cell-based, trout
[1] = biological target: Nav1.2 (rat brain Type II) (Rattus norvegicus, UniProt P04775); conditions: 2 μM or 10 μM
[2] = biological target: Nav1.4 (rat skeletal muscle) (Rattus norvegicus, UniProt P15390)
Shaker-Δ6-46 K427D = Shaker-Δ6-46 K427D (Drosophila melanogaster, UniProt P08510, DEL6-46/K427D); test: State-dependent block of Shaker-Δ6-46 K427D in Xenopus oocytes
Shaker K^+ channel = Shaker K^+ channel (Drosophila melanogaster, UniProt P08510)
Shaker T449Y = Shaker T449Y (Drosophila melanogaster, UniProt P08510, T449Y); test: Two-electrode voltage clamp, Shaker T449Y mutant in Xenopus oocytes; conditions: 2 μM toxin

Sequences of proteins named here, by UniProt entry; tags and fusion partners are left off. A line that says so, or that is headed by a name, gives the form on record, which may keep a tag or linker. Residues count along the entry.
UniProt P08510, whole entry F425G, looked up: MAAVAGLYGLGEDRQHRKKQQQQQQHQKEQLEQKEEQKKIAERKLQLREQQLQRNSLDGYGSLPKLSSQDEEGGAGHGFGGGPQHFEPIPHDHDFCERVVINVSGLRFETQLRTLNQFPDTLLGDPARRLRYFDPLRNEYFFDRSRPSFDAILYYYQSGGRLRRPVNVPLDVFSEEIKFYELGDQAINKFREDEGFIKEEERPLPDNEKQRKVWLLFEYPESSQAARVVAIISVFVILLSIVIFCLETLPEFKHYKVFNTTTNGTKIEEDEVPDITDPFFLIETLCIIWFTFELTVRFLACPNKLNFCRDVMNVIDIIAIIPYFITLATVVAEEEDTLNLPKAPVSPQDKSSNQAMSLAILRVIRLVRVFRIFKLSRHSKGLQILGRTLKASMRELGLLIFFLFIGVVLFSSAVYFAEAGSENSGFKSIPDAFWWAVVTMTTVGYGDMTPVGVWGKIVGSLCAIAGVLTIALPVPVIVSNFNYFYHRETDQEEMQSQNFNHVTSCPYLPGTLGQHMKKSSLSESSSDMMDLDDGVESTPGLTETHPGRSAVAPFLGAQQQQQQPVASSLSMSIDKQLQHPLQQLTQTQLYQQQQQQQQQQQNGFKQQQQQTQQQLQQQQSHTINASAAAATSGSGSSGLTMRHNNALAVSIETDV
UniProt P08510, 1-655 with tags or gaps DEL6-46/K427D: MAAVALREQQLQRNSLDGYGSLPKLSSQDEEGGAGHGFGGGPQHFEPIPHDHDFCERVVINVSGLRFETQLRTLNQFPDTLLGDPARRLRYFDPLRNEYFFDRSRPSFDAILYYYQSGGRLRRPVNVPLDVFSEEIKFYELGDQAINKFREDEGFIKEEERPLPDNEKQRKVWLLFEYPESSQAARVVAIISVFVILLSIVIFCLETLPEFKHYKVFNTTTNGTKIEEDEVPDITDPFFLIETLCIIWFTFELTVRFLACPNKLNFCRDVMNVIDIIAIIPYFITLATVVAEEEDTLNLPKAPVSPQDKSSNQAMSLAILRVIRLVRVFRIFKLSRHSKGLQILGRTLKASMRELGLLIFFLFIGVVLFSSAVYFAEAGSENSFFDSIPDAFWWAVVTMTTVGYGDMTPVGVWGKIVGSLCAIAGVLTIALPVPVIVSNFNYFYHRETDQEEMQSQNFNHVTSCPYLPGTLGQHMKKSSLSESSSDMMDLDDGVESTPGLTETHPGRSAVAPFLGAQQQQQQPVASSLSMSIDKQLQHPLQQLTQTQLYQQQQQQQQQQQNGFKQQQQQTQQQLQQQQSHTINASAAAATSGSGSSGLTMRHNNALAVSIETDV
UniProt P08510, whole entry, looked up: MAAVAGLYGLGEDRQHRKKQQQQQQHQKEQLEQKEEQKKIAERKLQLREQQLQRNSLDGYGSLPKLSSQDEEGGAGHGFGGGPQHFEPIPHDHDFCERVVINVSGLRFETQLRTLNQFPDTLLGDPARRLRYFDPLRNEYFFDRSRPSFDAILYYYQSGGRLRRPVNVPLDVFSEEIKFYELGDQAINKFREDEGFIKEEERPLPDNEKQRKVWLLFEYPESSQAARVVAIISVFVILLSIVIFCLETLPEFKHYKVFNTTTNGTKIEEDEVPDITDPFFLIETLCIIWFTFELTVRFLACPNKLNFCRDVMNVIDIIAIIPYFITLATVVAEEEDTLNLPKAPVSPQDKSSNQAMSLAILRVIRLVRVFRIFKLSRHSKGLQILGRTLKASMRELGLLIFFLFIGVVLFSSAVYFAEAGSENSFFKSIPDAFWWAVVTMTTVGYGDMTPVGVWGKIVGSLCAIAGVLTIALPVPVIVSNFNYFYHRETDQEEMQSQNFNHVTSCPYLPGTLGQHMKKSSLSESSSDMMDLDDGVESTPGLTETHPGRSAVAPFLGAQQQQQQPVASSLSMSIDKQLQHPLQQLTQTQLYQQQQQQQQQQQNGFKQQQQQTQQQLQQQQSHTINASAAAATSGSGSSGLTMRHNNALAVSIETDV
UniProt P08510, whole entry T449Y, looked up: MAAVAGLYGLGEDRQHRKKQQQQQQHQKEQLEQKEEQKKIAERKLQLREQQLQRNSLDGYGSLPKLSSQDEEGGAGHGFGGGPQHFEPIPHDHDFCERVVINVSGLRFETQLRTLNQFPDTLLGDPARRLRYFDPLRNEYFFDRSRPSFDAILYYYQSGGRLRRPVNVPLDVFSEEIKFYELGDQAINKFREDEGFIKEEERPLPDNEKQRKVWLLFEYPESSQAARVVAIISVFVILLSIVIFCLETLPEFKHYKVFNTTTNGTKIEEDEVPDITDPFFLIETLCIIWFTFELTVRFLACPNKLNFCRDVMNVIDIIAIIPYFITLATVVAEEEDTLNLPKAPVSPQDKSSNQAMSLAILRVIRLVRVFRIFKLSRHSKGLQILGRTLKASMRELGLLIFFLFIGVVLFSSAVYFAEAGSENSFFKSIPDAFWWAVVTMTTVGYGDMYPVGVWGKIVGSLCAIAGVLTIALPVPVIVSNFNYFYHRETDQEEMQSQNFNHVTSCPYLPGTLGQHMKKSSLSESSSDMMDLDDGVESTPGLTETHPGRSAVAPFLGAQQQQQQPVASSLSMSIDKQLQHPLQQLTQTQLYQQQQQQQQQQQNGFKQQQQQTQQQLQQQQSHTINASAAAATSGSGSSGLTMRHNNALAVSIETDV
UniProt P04775, whole entry, looked up: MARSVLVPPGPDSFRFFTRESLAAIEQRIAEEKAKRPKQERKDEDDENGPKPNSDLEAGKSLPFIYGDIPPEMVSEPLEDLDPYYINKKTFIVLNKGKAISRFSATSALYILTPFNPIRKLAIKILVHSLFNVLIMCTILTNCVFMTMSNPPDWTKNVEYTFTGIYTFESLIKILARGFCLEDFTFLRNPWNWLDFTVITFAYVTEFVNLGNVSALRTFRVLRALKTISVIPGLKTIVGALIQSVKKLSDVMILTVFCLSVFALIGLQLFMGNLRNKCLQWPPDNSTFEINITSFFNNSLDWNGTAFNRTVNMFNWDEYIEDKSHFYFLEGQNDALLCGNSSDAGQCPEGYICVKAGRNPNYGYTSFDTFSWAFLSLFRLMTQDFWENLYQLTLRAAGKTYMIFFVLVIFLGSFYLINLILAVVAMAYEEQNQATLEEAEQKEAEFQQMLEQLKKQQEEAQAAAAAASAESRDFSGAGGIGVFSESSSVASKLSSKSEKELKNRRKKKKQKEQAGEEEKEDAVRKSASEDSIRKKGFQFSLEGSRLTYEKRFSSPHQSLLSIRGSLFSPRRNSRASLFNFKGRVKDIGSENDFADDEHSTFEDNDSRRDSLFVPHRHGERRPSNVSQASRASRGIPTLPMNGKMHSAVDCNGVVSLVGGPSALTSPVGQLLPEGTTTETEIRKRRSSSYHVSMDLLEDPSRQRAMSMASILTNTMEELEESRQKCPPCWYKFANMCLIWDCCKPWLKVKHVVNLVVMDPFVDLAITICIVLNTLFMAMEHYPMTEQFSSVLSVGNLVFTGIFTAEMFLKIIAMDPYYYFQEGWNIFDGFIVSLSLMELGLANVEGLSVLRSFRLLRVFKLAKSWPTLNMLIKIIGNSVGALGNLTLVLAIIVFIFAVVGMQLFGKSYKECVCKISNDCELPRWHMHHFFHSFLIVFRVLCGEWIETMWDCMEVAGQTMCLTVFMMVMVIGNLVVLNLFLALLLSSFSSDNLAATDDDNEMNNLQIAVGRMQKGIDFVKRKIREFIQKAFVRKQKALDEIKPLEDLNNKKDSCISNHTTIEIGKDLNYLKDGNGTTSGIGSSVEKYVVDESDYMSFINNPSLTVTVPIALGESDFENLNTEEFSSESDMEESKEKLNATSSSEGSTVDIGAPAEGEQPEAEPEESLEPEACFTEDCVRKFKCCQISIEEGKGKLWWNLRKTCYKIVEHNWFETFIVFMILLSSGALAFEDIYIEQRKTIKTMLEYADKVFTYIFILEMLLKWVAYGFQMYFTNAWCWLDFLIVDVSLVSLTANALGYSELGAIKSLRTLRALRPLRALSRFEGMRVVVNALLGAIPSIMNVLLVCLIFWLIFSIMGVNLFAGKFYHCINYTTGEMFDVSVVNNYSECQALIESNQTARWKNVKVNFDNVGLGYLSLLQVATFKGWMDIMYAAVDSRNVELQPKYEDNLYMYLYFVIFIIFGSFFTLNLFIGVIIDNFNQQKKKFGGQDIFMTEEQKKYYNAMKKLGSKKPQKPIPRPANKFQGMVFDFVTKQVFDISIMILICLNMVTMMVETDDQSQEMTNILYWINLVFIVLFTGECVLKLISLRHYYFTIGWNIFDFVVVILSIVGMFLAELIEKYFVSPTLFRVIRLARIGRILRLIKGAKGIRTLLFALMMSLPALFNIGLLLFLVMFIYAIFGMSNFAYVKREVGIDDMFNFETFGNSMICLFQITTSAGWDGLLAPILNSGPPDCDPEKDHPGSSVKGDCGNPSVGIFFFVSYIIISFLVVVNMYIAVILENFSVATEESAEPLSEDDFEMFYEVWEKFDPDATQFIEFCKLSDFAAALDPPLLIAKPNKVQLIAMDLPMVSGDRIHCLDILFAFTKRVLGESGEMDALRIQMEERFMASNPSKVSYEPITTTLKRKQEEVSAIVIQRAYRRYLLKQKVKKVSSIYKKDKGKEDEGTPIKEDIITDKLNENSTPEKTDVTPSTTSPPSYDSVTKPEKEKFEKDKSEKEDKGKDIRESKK
UniProt P15390, whole entry, looked up: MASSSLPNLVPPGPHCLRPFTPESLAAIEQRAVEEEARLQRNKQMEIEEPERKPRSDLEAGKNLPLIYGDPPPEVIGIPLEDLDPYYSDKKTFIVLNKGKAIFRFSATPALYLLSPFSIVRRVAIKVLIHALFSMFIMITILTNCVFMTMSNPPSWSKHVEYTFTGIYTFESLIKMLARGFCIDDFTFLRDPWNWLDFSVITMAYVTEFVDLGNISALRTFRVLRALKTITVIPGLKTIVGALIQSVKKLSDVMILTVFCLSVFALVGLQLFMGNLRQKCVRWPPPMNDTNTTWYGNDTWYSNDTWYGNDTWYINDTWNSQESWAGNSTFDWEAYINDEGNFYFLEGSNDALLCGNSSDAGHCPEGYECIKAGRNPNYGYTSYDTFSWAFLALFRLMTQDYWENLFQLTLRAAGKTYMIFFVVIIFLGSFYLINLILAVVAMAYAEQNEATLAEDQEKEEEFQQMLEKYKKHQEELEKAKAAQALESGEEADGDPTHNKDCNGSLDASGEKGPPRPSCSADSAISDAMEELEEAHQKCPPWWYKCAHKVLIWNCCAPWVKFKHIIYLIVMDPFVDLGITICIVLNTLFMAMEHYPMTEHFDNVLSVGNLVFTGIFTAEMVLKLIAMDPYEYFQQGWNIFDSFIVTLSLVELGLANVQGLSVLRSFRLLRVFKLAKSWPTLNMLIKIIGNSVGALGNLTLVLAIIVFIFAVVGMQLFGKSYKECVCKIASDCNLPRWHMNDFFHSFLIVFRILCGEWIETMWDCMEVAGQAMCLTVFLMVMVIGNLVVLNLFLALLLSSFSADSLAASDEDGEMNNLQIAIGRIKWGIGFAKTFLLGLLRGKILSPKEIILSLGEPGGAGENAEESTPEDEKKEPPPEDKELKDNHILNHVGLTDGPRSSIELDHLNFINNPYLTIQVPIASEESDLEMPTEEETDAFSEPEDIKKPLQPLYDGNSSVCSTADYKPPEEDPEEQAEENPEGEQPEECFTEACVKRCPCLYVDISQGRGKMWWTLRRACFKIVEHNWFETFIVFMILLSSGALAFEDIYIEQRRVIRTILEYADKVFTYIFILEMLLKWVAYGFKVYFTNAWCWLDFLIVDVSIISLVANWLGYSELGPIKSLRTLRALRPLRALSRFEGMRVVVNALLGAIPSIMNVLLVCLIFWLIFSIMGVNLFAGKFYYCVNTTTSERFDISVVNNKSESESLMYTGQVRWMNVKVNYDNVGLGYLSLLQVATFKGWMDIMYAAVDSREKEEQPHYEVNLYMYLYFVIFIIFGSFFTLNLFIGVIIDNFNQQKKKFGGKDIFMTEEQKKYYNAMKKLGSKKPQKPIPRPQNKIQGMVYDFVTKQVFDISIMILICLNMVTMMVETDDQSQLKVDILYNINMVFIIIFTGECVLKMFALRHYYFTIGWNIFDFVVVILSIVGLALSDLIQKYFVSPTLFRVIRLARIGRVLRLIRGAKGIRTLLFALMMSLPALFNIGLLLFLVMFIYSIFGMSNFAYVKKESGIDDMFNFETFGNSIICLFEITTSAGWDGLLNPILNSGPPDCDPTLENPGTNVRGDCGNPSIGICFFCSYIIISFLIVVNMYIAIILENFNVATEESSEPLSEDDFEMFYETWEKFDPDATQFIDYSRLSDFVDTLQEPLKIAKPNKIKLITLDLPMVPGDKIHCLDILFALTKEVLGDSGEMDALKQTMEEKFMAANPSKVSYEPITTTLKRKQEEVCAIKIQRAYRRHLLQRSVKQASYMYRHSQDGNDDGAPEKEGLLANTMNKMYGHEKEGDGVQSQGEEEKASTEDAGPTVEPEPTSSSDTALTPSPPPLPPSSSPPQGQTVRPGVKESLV

CC(C)C[C@@H]1NC(=O)[C@H](CO)NC(=O)[C@@H]2CSSC[C@@H]3NC(=O)[C@@H]4C[C@@H](O)CN4C(=O)[C@H](CC(N)=O)NC(=O)[C@H](CCCNC(=N)N)NC(=O)[C@H](CCCCN)NC(=O)[C@H](CSSC[C@H](NC(=O)[C@H](CO)NC(=O)[C@@H]4C[C@@H](O)CN4C(=O)[C@@H](N)CC(C)C)C(=O)N2)NC(=O)[C@H](C)NC(=O)[C@@H]2C[C@@H](O)CN2C(=O)[C@H](C(C)C)NC(=O)[C@@H]2C[C@@H](O)CN2C(=O)[C@H](CSSC[C@@H](C(=O)N[C@H](C(N)=O)[C@@H](C)O)NC3=O)NC(=O)[C@H](CC(C)C)NC(=O)[C@H](CCCNC(=N)N)NC(=O)[C@H](CC(C)C)NC(=O)[C@H](CC(N)=O)NC1=O
sensitivity of F425G channel to toxin (Shaker F425G): insensitive | reversibility of TSha1 block (TSha1 K^+ channel; 1 μM toxin): reversible | k^(C)off, factor of difference between Shaker-Δ6-46 K427D and Tsha1 (TSha1 K^+ channel; closed state): 10 | k^(C)off (TSha1 K^+ channel; closed state, n=3): 0.25 ± 0.04 s⁻¹ | k^(C)on (TSha1 K^+ channel; closed state, n=3): 1.69e+07 ± 6.9e+06 M⁻¹ s⁻¹ | k^(O)off (TSha1 K^+ channel; open state, n=4): 5.2 ± 1.8 s⁻¹ | k^(O)on (TSha1 K^+ channel; open state, n=4): 8.8e+07 ± 2.5e+07 M⁻¹ s⁻¹ | effect on currents of Nav1.2 [1]: did not show any detectable effect | effect on currents of Nav1.4 ([2]; 2 μM or 10 μM): did not show any detectable effect | effect on Nav1.4 evoked currents ([2]; 10 μM, test potentials −80 to +60 mV): no effect | k^(C)off, factor of difference between Shaker-Δ6-46 and Shaker-Δ6-46 K427D (Shaker-Δ6-46 K427D; closed state): three | k^(C)on, times higher than in the Shaker-Δ6-46 channel (Shaker-Δ6-46 K427D; closed state): about four | k^(C)off (Shaker-Δ6-46 K427D; closed state, n=6): 2.2 ± 0.9 s⁻¹ | k^(C)on (Shaker-Δ6-46 K427D; closed state, n=6): 1.67e+07 ± 8.6e+06 M⁻¹ s⁻¹ | k^(O)off (Shaker-Δ6-46 K427D; open state, n=3): 19 ± 2.5 s⁻¹ | k^(O)on (Shaker-Δ6-46 K427D; open state, n=3): 5.7e+07 ± 2.6e+07 M⁻¹ s⁻¹ | effect on Shaker-mediated whole cell currents (Shaker K^+ channel; 2 μM toxin, test potentials 0, 20 and 40 mV): block of the currents | Hill coefficient (Shaker K^+ channel; dose response, Shaker channel): 1 | sensitivity of T449Y channel to toxin (Shaker T449Y): insensitive

Source: patent US20080274976A1, “USES OF NOVEL POTASSIUM CHANNEL BLOCKERS” (priority 2002, published 2008)
